Data: article PMC8294059, “Identification and Immune Assessment of T Cell Epitopes in Five Plasmodium falciparum Blood Stage Antigens to Facilitate Vaccine Candidate Selection and Optimization” (Frontiers in Immunology, 2021)

How the values were obtained:
HLA-A*0201 = HLA-A*0201 (Homo sapiens, UniProt P04439, D140Y/D185E/D98H/E176V/E277Q/G131W/G231S/I119V/I121R/I166T/I218V/L300P/L318F/N151K/N90K/P208A/P217A/Q86G/Q94H/R138H/R169H/T345S); test: In vitro class I HLA binding assay (fluorescence polarization competition)
Method: A cell-free class I HLA binding assay that allows for in vitro quantification of peptide-HLA binding affinity in a competition format was used. In this assay, a fluorescently labeled, high binding, control peptide is loaded onto 384-well ½-area plates along with unlabeled experimental peptides. To remove endogenous peptides and render the HLA A and B molecules receptive to binding, HLA is heated at 53°C for 15 minutes and immediately added to the assay. The mixture is then allowed to stand for three days. Once the mixture has reached steady equilibrium (at 72 hours), displacement of the high binding control peptide is measured through fluorescence polarization. Binding of experimental peptides is expressed as the percent inhibition of the labeled control peptide (experimental fluorescence / control fluorescence, multiplied by 100). The percent inhibition values for each experimental peptide (across a range of molar concentrations) are used to calculate the concentration which inhibits 50% of the labeled control peptide’s specific binding. This value is referred to as the peptide’s IC50.

HLA-A*0301 = HLA-A*0301 (Homo sapiens, UniProt P04439); details: allele A*0301; fluorescence polarization competition

SMILES	IC50 (nM), in vitro HLA binding affinity (HLA-A*0201; allele A*0201)	IC50 (nM), in vitro HLA binding affinity (HLA-A*0301)	IC50 (HLA-A*0201; read-out: IC50 (nM), in vitro HLA binding affinity, allele A*0201)
CC[C@H](C)[C@H](NC(=O)[C@H](Cc1ccc(O)cc1)NC(=O)[C@@H]1CCCN1C(=O)[C@H](CCCNC(=N)N)NC(=O)[C@H](CC(C)C)NC(=O)[C@H](Cc1ccccc1)NC(=O)[C@H](Cc1ccccc1)NC(=O)[C@H](Cc1ccc(O)cc1)NC(=O)[C@H](CCC(N)=O)NC(=O)[C@@H](N)C(C)C)C(=O)O	Non-binder	–	–
CC[C@H](C)[C@H](NC(=O)[C@H](Cc1ccccc1)NC(=O)[C@H](CO)NC(=O)[C@H](CC(N)=O)NC(=O)[C@H](Cc1c[nH]cn1)NC(=O)[C@H](CO)NC(=O)[C@@H]1CCCN1C(=O)[C@@H](NC(=O)[C@@H](N)Cc1ccccc1)[C@@H](C)CC)C(=O)O	–	Non-Binder	31000 nM
CC(C)C[C@H](NC(=O)[C@H](Cc1ccccc1)NC(=O)[C@H](CC(=O)O)NC(=O)[C@H](CCCNC(=N)N)NC(=O)[C@H](CC(N)=O)NC(=O)[C@H](CO)NC(=O)[C@H](CS)NC(=O)[C@@H](NC(=O)[C@@H](N)Cc1ccccc1)C(C)C)C(=O)N[C@@H](CCCCN)C(=O)O	–	Non-binder	–

The structures given here were assigned with low confidence; some may be wrong.
